Laboratory results: patent US8835507B2, “Adamantane derivatives possessing anti-viral and anti-microbial activity” (priority 2012, dated 2014)

Key:
[1] = tested on: Vaccinia virus, WR strain; settings: TC50/IC50
[2] = tested on: Tacaribe virus
[3] = tested on: Pichinde virus

C(CNC12CC3CC(CC(C3)C1)C2)NC12CC3CC(CC(C3)C1)C2 [Compound 6]
Therapeutic Index [1]: 17.45
SI [2]: 5
SI [3]: 1

ClN(CCN(Cl)C12CC3CC(CC(C3)C1)C2)C12CC3CC(CC(C3)C1)C2 [Compound 7]
Therapeutic Index [1]: 9.96
SI [2]: 17
SI [3]: 0

NC(=O)c1ncn([C@@H]2O[C@H](CO)[C@@H](O)[C@H]2O)n1 [Ribivirin, reference compound]
Therapeutic Index [1]: >3.5
